Assay results reported in PMC7940615 (Scientific Reports, 2021).

NC(N)=Nc1nc(CSCCC(N)=NS(N)(=O)=O)cs1 [Famotidine]
cytotoxicity (in words) (Vero E6 cells): not toxic
cytotoxicity (in words) (human lung A549 cells): not toxic
